# From US11472778B2, “Hepatitis C virus NS3/4A protease inhibitors” (priority 2017, dated 2022)
# Target: GT1a D168A NS3/4A protease
# Conditions: Table 6; with respect to GT1a wild-type
compound,measurement,value
COc1ccc2nc(C)c(O[C@@H]3C[C@H]4C(=O)N[C@]5(C(=O)NS(=O)(=O)C6(C)CC6)C[C@H]5/C=C\CCCCC[C@H](NC(=O)OC(C)(C)C(F)(F)F)C(=O)N4C3)nc2c1,Ki (Fold Change) D168A,(15) fold
